Measured values from several laboratories, pooled; numbers as filed in NIAID ChemDB.

All rows: tests in culture; organism: Candida albicans; measure: MIC

a–b is a range or a potency band. An empty or dashed field is not shown. Lines come from different laboratories, so protocols vary.

smiles,strain,method,result
C=C(Cl)/C=C/[C@H](O)CC(=C)C[C@H]1OC2[C@@H](O)[C@]3(O)C[C@@H](O)[C@H](C)[C@H](CCC/C=C\[C@@H]4C[C@@H](O)C[C@]5(C[C@H](OC)CC(CC(=O)[C@@H](C)[C@H](OC(C)=O)[C@@H](C)C(=C)C[C@@H]6C[C@@](C)(O)C[C@]7(C[C@H](OC(C)=O)CC(CC(=O)O[C@@H]([C@@H]1O)[C@H]2C)O7)O6)O5)O4)O3,ATCC 14053,-,3.12 µg/mL
N#CC(O)c1ccccc1,ATCC 10231,broth dilution,750 µg/mL
Cc1c(N2CC[C@H](n3cccc3)C2)c(F)cn2c(=O)c(C(=O)O)cc(C3CC3)c12,CCH442,-,>100 µg/mL
CN1CCC2=C(CCCC2CCc2ccc(F)cc2)C1,2402E,-,31 µg/mL
C[C@@H]1[C@H](O)[C@@H](C)/C=C/C=C/CC/C=C/C=C/C=C/C=C/C(O[C@H]2O[C@H](C)[C@@H](O)[C@H](N)[C@@H]2O)CC2O[C@](O)(CC(O)C(O)CCC(O)CC(O)CC(O)CC(=O)O[C@H]1C)CC(O)C2C(=O)O,MTCC 854,-,150 µg/mL
COc1ccc2nc(N3CCOCC3)c(/C=C(/C#N)c3nc4ccc(C)cc4[nH]3)cc2c1,MTCC 227,broth dilution,500 µg/mL
O=c1c(-c2ccc(O)cc2)coc2cc(OCCCN3CCCC3)cc(O)c12,-,MTT,20.5 µg/mL
COc1c(N2CCC(N)C2)c(F)cn2c(=O)c(C(=O)O)cc(C3CC3)c12.Cl,CCH442,-,>100 µg/mL
C=C(C)C1OC1c1c(OC)ccc2ccc(=O)oc12,ATCC 14053,-,500 µg/mL
Cc1c(N2CC[C@H](n3cccc3)C2)c(F)cn2c(=O)c(C(=O)O)cc(C3CC3)c12,CCH442,-,>100 µg/mL
CCN1C2=NC[C@H](C3CCCCC3)N2C[C@@H]1Cc1ccccc1,ATCC 10231,-,>64 µg/mL
Cc1c(N2CCNCC2)c(F)cn2c(=O)c(C(=O)O)cc(C3CC3)c12,CCH442,-,>100 µg/mL
C=CCc1ccc(O)c(-c2ccc(O)c(CC=C)c2)c1,YL 331,broth dilution,128 µg/mL
O=c1c(-c2ccc(O)cc2)coc2cc(OCCCn3cnc4ccccc43)cc(O)c12,-,MTT,>50 µg/mL
COc1ccc(/C=C/C(=O)c2ccc(OC)c(OC)c2)cc1OC,ATCC 10231,-,>50 µg/mL
C1CCC(C[C@H]2CN=C3N2C[C@H](C2CCCCC2)N3CCC23CC4CC(CC(C4)C2)C3)CC1,ATCC 10231,-,10–16 µg/mL
CCC(C)CC(C)CCCCCCCCC(=O)N[C@H]1C[C@@H](O)[C@@H](O)NC(=O)[C@@H]2[C@@H](O)CCN2C(=O)[C@H]([C@H](O)CC(N)=O)NC(=O)[C@H]([C@H](O)[C@@H](O)c2ccc(O)cc2)NC(=O)[C@@H]2C[C@@H](O)CN2C(=O)[C@H]([C@@H](C)O)NC1=O,-,-,<0.02 µg/mL
O=[N+]([O-])C1Cc2[se]nnc2-c2ccccc21,-,-,12.5 µg/mL
C[C@@]12CCC[C@]3(C)C4=CC(=O)OC(O)[C@]45O[C@@H]5C(OC1=O)[C@@H]23,ATCC 90029,-,>64 µg/mL
Clc1ccc([Se][Se]c2ccc(Cl)cc2)cc1,-,broth dilution,>64 µg/mL
CCCCN(CCCC)CCCCOc1cc(O)c2c(=O)c(-c3ccc(O)cc3)coc2c1,-,MTT,>50 µg/mL
Nc1ccc2oc(=O)ccc2c1,ATCC 14053,-,500 µg/mL
CN(Cc1ccc(C(C)(C)C)cc1)Cc1cccc2ccccc12,57 strains,-,>100 µg/mL
O=C(/C=C/c1ccco1)c1ccc(Cl)cc1Cl,ATCC 10231,-,>50 µg/mL
O=c1c(-c2ccc(O)cc2)coc2cc(OCCNCc3ccco3)cc(O)c12,-,MTT,>50 µg/mL
C=CC[C@@H]1/C=C(/C)C[C@H](C)C[C@H](OC)[C@H]2O[C@@](O)(C(=O)C(=O)N3CCCC[C@H]3C(=O)O[C@H](/C(C)=C/[C@@H]3CC[C@@H](O)[C@H](OC)C3)[C@H](C)[C@@H](O)CC1=O)[C@H](C)C[C@@H]2OC,YAG237 (genotype CNB1-1/CNB1),-,>3.12 µg/mL
O=c1ccc2ccccc2o1,ATCC 14053,-,500 µg/mL
CN1CCC2=C(CCCC2CCc2c(Cl)cccc2Cl)C1,2005E,-,16 µg/mL
COc1ccc(/C=C/C(=O)c2ccc(C)cc2)cc1,ATCC 10231,-,>50 µg/mL
Cc1c(N2CCC(n3ccnn3)C2)c(F)cn2c(=O)c(C(=O)O)cc(C3CC3)c12,CCH442,-,0.39 µg/mL
COc1cc(/C=C/C(=O)c2cc(OC)c(OC)c(OC)c2)cc(OC)c1OC,ATCC 10231,-,>50 µg/mL
CC1=C(N2CC(N)C3(CCC3)C2)C(F)=CN2C(=O)C(C(=O)O)=CC(C3CC3)C12,CCH442,-,>100 µg/mL
Cc1c(N2CCC(n3cccc3)CC2)c(F)cn2c(=O)c(C(=O)O)cc(C3CC3)c12,CCH442,-,>100 µg/mL
Cc1cnccc1CCCc1ccccc1,2402E,-,16 µg/mL
C[C@@H](c1nc(-c2ccc(C#N)cc2)cs1)[C@](O)(Cn1cnnc1)c1ccc(F)cc1F,A28976,-,>16 µg/mL
Clc1ccc(CCC2CCCc3cnccc32)cc1,C316,-,8 µg/mL
CCCCN(CCCC)CCCOc1cc(O)c2c(=O)c(-c3ccc(O)cc3)coc2c1,-,MTT,>50 µg/mL
Cc1c(N2CCN(c3ccccn3)CC2)c(F)cn2c(=O)c(C(=O)O)cc(C3CC3)c12,CCH442,-,>100 µg/mL
Cc1c(N2CCN(c3ccccn3)CC2)c(F)cn2c(=O)c(C(=O)O)cc(C3CC3)c12,CCH442,-,>100 µg/mL
CCN1C2=NC[C@H](Cc3ccccc3)N2C[C@H]1C,ATCC 10231,-,>250 µg/mL
C[C@H](CCC(=O)NCCNCCNC(=O)CC[C@@H](C)[C@H]1CCC2C3C(C[C@H](C)[C@@]21O)[C@@]1(C)CC[C@@H](O)CC1C[C@H]3O)[C@H]1CCC2C3C(C[C@H](C)[C@@]21O)[C@@]1(C)CC[C@@H](O)CC1C[C@H]3O,Isolate 2,-,0.011 µM
O=c1c(-c2ccc(O)cc2)coc2cc(OCCCCN3CCCC3)cc(O)c12,-,MTT,>50 µg/mL
c1ccc2c(c1)CCc1[se]nnc1-2,-,-,12.5 µg/mL
COc1ccc(C(=O)CC(c2ccc3ccccc3c2)C(C#N)C#N)cc1OC,ATCC 10231,-,>50 µg/mL
CC(C)=CCc1cc2cc(CC=C(C)C)c(=O)oc2cc1O,ATCC 14053,-,500 µg/mL
c1ccc(C[C@H]2CN=C3N(CCC45CC6CC(CC(C6)C4)C5)[C@@H](Cc4ccccc4)CN32)cc1,ATCC 10231,-,32–64 µg/mL
c1ccc([Se][Se]c2ccccc2)cc1,-,broth dilution,4–32 µg/mL
CN1CCC2=C(CCCC2CCc2ccc(Br)cc2)C1,2005E,-,2 µg/mL
O=c1c(-c2ccc(O)cc2)coc2cc(OCCCNCc3ccco3)cc(O)c12,-,MTT,>50 µg/mL
COc1cc(O)c2c(c1)C(=O)c1c(cc3c(c1O)-c1c(cc(C)c(C(=O)NC(CO)C(=O)O)c1O)[C@H](OC1OC(C)C(O)C(OC4OCC(O)C(O)C4O)C1O)C3O)C2=O,A9540,-,3.1 µg/mL
CC(C)(C)C1CCC(CN2C3=NC[C@@H](C4CCCCC4)N3C[C@@H]2CC2CCCCC2)CC1,ATCC 10231,-,5–8 µg/mL
Cc1ccc2nc(N3CCOCC3)c(/C=C(/C#N)c3nc4ccccc4[nH]3)cc2c1,MTCC 227,broth dilution,500 µg/mL
COc1ccc(OC)c2c1CCc1snnc1-2,-,-,12.5 µg/mL
CC(C)(C)C1CCC(CN2C3=NC[C@H](Cc4ccccc4)N3C[C@@H]2Cc2ccccc2)CC1,ATCC 10231,-,>64 µg/mL
C[C@@H]1[C@H](O)[C@@H](C)/C=C/C=C/CC/C=C/C=C/C=C/C=C/C(O[C@H]2O[C@H](C)[C@@H](O)[C@H](N)[C@@H]2O)CC2O[C@](O)(CC(O)C(O)CCC(O)CC(O)CC(O)CC(=O)O[C@H]1C)CC(O)C2C(=O)O,MTCC 227,broth dilution,100 µg/mL
CC1=C(N2C[C@H]3CCCN[C@H]3C2)C(F)=CN2C(=O)C(C(=O)O)=CC(C3CC3)C12,CCH442,-,>100 µg/mL
CN1CC[C@H]2[C@@H](CC[C@@H]3c4cc(F)ccc4CC[C@H]23)C1,C316,-,62 µg/mL
CC(C)C[C@@H]1CN2C(=NC[C@H]2C2CCCCC2)N1CCC12CC3CC(CC(C3)C1)C2,ATCC 10231,-,>64 µg/mL
Cc1c(NCCN)c(F)cn2c(=O)c(C(=O)O)cc(C3CC3)c12.Cl,CCH442,-,25 µg/mL
CCN1C2=NC[C@H](Cc3ccccc3)N2C[C@H]1C1CCCCC1,ATCC 10231,-,>64 µg/mL
CO[C@H]1OC(=O)C[C@@]2(O)[C@@]13O[C@@H]3C1OC(=O)[C@@]3(C)CCC[C@@]2(C)[C@@H]13,1463D,-,>64 µg/mL
CCN[C@H]1CCN(c2c(F)cn3c(=O)c(C(=O)O)cc(C4CC4)c3c2C)C1,CCH442,-,0.02 µg/mL
CC(C)=CCc1c(O)ccc2ccc(=O)oc12,ATCC 14053,-,250 µg/mL
Cc1ccc2nc(N3CCOCC3)c(/C=C(/C#N)c3nc4ccc(C)cc4[nH]3)cc2c1,MTCC 227,broth dilution,250 µg/mL
CN1CCC2=C(CCCC2CCc2ccc(Cl)cc2Cl)C1,2381E,-,31 µg/mL
COc1ccc2nc(N3CCOCC3)c(CC(C#N)c3nc4ccccc4[nH]3)cc2c1,MTCC 227,broth dilution,250 µg/mL
CN1CCC2=C(CCCC2CCc2ccccc2)C1,2402E,-,31 µg/mL
Cc1c(N2CC[C@H](CO)C2)c(F)cn2c(=O)c(C(=O)O)cc(C3CC3)c12,CCH442,-,6.2 µg/mL
COc1ccc(C(=O)/C=C/c2cc3cc(OC)c(OC)cc3nc2Cl)cc1OC,ATCC 10231,-,>50 µg/mL

A second listing of 4 rows from above:

| smiles | strain | method | result |
|---|---|---|---|
| C=CCc1ccc(O)c(-c2ccc(O)c(CC=C)c2)c1 | YL 331 | broth dilution | 128 µg/mL |
| CCN[C@H]1CCN(c2c(F)cn3c(=O)c(C(=O)O)cc(C4CC4)c3c2C)C1 | CCH442 | - | 0.02 µg/mL |
| C[C@@H](c1nc(-c2ccc(C#N)cc2)cs1)[C@](O)(Cn1cnnc1)c1ccc(F)cc1F | A28976 | - | >16 µg/mL |
| Cc1ccc2nc(N3CCOCC3)c(/C=C(/C#N)c3nc4ccc(C)cc4[nH]3)cc2c1 | MTCC 227 | broth dilution | 250 µg/mL |